“And” between values parts separate entries of the source, which are not always exact repeats. Equal entries are not always repeated. Marks after values point to notes of the source that are not given here.
Key:
Format in all cases: cell-based
[1] = tested on: Hepatitis A Virus (HAV)
[2] = tested on: Influenza virus Wisconsin A strain produced on MDCK cells
[3] = tested on: Porcine Pseudorabies Virus (PRV)
[4] = tested on: Influenza virus produced on MDCK cells
[5] = tested on: Murine Leukaemia Virus (MuLV)
[6] = tested on: Influenza virus Malaysia B strain produced on MDCK cells
[7] = tested on: H5N1 influenza virus produced on EB66 cells

Molecule | LVR [1] [log] | log TCID50/ml [1] [log TCID50/ml] | log TCID50/ml [2] | LVR [3] [log] | log TCID50/ml [3] [log TCID50/ml] | viral titration reduction [4] | LVR [5] | log TCID50/ml [6] | LVR [7] | log TCID50/ml [7]
O=C1CCO1 [BPL, beta-propiolactone] | 3.8 | 1.5 | ≦0.8 log TCID50/ml | 3.4 | 2.6 | about 8 logs | 2.7 log and 2.8 log and 1.6 log | ≦1.8 log TCID50/ml | – | –
Triton X-100 | – | – | – | – | – | – | – | – | 3.8*** log | 5.2 log TCID50/ml and 5.0 log TCID50/ml
